# Deep mutational scan of the Zika virus protease

From the data files of Ni et al. 2025, doi:10.1038/s41467-025-63602-z.

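Mutant virus pools were grown in human Huh-7.5 cells. The effect is the change in frequency of a mutant, normalised to wild type, as a mean of three replicate libraries (two for positions 207-308). The aim was to find sites where inhibitor-binding pockets cannot change.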

Chain scanned (Zika virus MR766; NS2B from position 2 to 131, then the start of NS3):
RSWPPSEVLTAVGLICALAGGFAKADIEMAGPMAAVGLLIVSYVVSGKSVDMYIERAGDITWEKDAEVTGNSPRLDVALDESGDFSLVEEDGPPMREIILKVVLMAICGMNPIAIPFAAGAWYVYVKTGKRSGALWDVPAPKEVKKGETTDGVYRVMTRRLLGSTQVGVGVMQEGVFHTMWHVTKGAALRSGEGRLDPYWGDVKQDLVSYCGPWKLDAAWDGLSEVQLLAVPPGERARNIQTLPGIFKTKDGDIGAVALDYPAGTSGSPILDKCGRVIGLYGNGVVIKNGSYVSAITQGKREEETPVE

The number is log2 of the effect relative to wild type; negative values mean reduced growth, higher values better tolerance. Each entry names the wild-type residue, its position and the residue put in its place. The authors count -1 or higher as tolerated. Position 1 is the last residue of NS2A. Positions 1-103, 104-206 and 207-308 were made and measured as separate libraries. An asterisk is a stop codon; stop codons read about -7, near the floor of the assay. Values above 0 are not proof of better growth: six high scorers were tested one by one, five grew less well than wild type and one about as well.

| substitution | log2 effect |
|---|---|
| K64A | -0.11 |
| A230D | -5.50 |
| I296Q | -4.55 |
| V169E | -5.72 |
| G133R | -7.15 |
| D51S | -4.43 |
| G255E | -6.44 |
| G168Q | -4.25 |
| G284Y | -4.82 |
| I270V | -0.58 |
| V153R | -7.10 |
| R195C | -5.69 |
| V226R | -6.47 |
| R96N | -2.82 |
| W136F | -6.78 |
| A187I | -4.54 |
| G282R | -5.40 |
| V257D | -5.00 |
| S42D | -4.99 |
| T297L | -5.53 |
| G299Q | -4.93 |
| V203Q | -6.84 |
| V285S | -5.93 |
| R96H | -3.62 |
| M105F | -5.39 |
| A57T | 0.50 |
| G212T | -7.87 |
| K64T | -0.45 |
| V208Y | -7.62 |
| K142G | -5.37 |
| L135W | -6.97 |
| T265H | -3.76 |
| G58V | -2.76 |
| T165G | -0.88 |
| Y53S | -6.81 |
| V144Q | -1.20 |
| R276I | -5.33 |
| A78R | 0.18 |
| L243C | -1.15 |
| G13R | -7.11 |
| P306C | -0.38 |
| I27D | -5.15 |
| R1W | -5.40 |
| Y210F | -6.63 |
| P112* | -5.29 |
| A237P | 1.54 |
| P4C | -5.09 |
| A295L | -6.09 |
| E97N | -4.79 |
| V169M | -5.72 |
| P141I | -4.22 |
| S268N | -4.43 |
| K142H | -2.84 |
| A34E | -4.62 |
| G83N | -5.61 |
| V50M | -1.80 |
| P112D | -4.55 |
| D221E | -6.09 |
| G175Q | -2.52 |
| G279K | -4.90 |
| T249P | -7.19 |
| L87Q | -6.72 |
| P73T | -4.25 |
| G290C | -5.70 |
| G70D | -6.33 |
| V167R | -7.46 |
| G245Y | -5.18 |
| K142P | -1.20 |
| G186* | -7.21 |
| S224P | -6.34 |
| R301D | -4.86 |
| L9R | -6.57 |
| S291Y | -4.57 |
| T165D | -4.97 |
| A66Q | -6.44 |
| V44W | -5.95 |
| K127Y | -5.80 |
| P73K | -5.67 |
| A258* | -6.80 |
| M33Q | -4.16 |
| M172C | -5.87 |
| D217H | -4.07 |
| A106L | -1.85 |
| K273S | -1.55 |
| L259P | -5.92 |
| Y199F | -1.22 |
| V169Y | -5.05 |
| L161K | -4.73 |
| K142C | -2.95 |
| M180L | -6.52 |
| L189E | -5.38 |
| A237Y | -0.39 |
| L223Y | -0.26 |
| P213L | -2.91 |
| E89R | -4.50 |
| A188G | -3.25 |
| L243S | -2.49 |
| Y154C | -5.21 |
| R276P | -5.77 |
| S191P | -5.59 |
| F117E | -5.09 |
| E90F | -0.36 |
| T150W | -2.97 |
| I287D | -5.13 |
| K288Y | -4.86 |
| K146S | -2.36 |
| E63F | -2.48 |
| D221* | -7.34 |
| G70A | -7.14 |
| Y53D | -5.47 |
| C211I | -2.43 |
| A140S | -1.03 |
| A119M | -2.36 |
| A219I | 1.59 |
| Q241* | -8.36 |
| P5Q | -0.75 |
| T242F | -4.49 |
| I254K | -6.17 |
| I296Y | -4.36 |
| N283Q | -4.77 |
| E81M | -5.86 |
| G212H | -6.19 |
| A35R | -7.07 |
| I27P | -5.86 |